Reference: US20250002455A1, “NEW N-PHENYLPYRROLAMIDE INHIBITORS OF DNA GYRASE AND TOPOISOMERASE IV WITH ANTIBACTERIAL ACTIVITY” (priority 2020, published 2025)

Key:
Assay in all cases: Microbroth dilution MIC (CLSI)
[1] = system: E. aerogenes (ATCC 13408); format: cell-based, Enterobacter aerogenes; settings: tested form: HCl
Method: (§1) The chemical entities described in the present invention were assessed for their antimicrobial activity using a microbroth dilution assay as recommended by the CLSI (Methods for Dilution Antimicrobial Susceptibility Tests for Bacteria That Grow Aerobically, and Methods for Antimicrobial Susceptibility Testing of Anaerobic Bacteria, Clinical and Laboratory Standards Institute, Document M07-A8, and M11-A8, Wayne, PA 19087, USA, 2012.). Compounds were dissolved by using 100% DMSO. Serial two-fold dilutions of each compound were made by using 100% DMSO as the diluent.
(§2) A library of Gram-negative and Gram-positive microbes and their drug- and multidrug-resistant variants were employed as test organisms. The MIC (minimum inhibitory concentration) was determined as the lowest concentration of an individual drug that lead to no visible growth.

[2] = system: A. baumannii (ATCC 19606); format: cell-based, Acinetobacter baumannii; settings: tested form: HCl
Method: as §1, §2

P. aeruginosa ATCC 27853 = format: cell-based, Pseudomonas aeruginosa; settings: tested form: HCl
Method: as §1, §2

[3] = system: K. pneumoniae (ATCC 700603); format: cell-based, Klebsiella pneumoniae; settings: tested form: HCl
Method: as §1, §2

S. aureus ATCC 29213 = format: cell-based, Staphylococcus aureus; settings: tested form: HCl
Method: as §1, §2

E. coli ATCC 25922 = format: cell-based, Escherichia coli; settings: tested form: HCl
Method: as §1, §2

E. faecium (ATCC 35667) = format: cell-based, Enterococcus faecium; settings: E. faecium (ATCC 35667) Päivi; tested form: HCl
Method: as §1, §2

Measured: MIC

Cc1[nH]c(C(=O)Nc2ccc(C(=O)NCC(=O)O)cc2N2CC[C@H](N)C2)c(Cl)c1Cl
≥64 µg/mL: [1] | [2] | P. aeruginosa ATCC 27853 | [3] | S. aureus ATCC 29213 | E. coli ATCC 25922 | E. faecium (ATCC 35667)
